Results taken from ChEMBL document CHEMBL5375961, “Design, Synthesis, and Biological Evaluation of Trisubstituted Piperazine Derivatives as Noncovalent Severe Acute Respiratory Syndrome Coronavirus 2 Main Protease Inhibitors with Improved Antiviral Activity and Favorable Druggability” (J Med Chem, 2023).

Sequences of proteins named here, by UniProt entry; tags and fusion partners are left off. A change or cut given only in a name is not applied to a line headed by its entry.
UniProt P07711: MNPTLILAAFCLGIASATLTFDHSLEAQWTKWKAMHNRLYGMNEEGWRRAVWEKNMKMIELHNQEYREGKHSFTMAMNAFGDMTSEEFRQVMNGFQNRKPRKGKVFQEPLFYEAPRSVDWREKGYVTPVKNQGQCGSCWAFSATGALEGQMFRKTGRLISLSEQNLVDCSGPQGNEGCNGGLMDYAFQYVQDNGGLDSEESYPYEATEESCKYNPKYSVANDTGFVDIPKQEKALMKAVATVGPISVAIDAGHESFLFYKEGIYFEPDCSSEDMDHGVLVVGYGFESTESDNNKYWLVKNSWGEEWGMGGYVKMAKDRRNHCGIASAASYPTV

How the values were obtained:
[1] = biological target: Cathepsin B (Homo sapiens) (UniProt P07858); test: Inhibition of human Cathepsin B using Z-Leu-Arg-AMC as substrate upto 50 uM incubated for 60 mins by FRET assay
[2] = biological target: Procathepsin L (Homo sapiens) (UniProt P07711); test: Inhibition of human Cathepsin L using Z-Leu-Arg-AMC as substrate upto 50 uM incubated for 60 mins by FRET assay
[3] = biological target: T1, Cathepsin F (Homo sapiens) (UniProt Q9UBX1); test: Inhibition of human Cathepsin F using Z-Phe-Arg-AMC as substrate upto 50 uM incubated for 60 mins by FRET assay
T1 sequence (whole entry): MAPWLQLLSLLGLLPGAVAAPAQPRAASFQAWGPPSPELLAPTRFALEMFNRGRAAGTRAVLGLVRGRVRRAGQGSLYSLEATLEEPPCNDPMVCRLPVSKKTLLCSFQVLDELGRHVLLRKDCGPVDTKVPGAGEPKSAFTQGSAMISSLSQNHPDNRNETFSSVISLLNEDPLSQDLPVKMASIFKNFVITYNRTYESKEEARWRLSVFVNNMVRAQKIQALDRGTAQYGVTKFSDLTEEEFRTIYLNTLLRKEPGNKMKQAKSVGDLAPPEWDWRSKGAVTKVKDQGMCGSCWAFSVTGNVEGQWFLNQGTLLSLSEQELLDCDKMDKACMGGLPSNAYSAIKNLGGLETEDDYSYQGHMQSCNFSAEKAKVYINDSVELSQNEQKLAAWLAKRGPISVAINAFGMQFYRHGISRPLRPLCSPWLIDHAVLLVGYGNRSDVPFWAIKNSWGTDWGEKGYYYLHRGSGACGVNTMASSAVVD

[4] = biological target: T2, Cathepsin K (Homo sapiens) (UniProt P43235); test: Inhibition of human Cathepsin K using Ac-LR-AFC as substrate upto 50 uM incubated for 60 mins by FRET assay
T2 sequence (whole entry): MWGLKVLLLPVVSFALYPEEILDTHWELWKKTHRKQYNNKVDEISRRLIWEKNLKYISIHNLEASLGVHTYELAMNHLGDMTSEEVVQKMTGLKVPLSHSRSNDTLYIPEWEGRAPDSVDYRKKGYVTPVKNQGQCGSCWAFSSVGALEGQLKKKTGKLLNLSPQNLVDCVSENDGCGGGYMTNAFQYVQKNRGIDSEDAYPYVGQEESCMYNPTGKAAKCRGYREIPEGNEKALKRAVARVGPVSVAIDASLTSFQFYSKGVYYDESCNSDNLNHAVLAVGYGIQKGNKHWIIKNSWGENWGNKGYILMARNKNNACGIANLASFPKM

Measured: inhibition

COc1ccc(NC(=O)[C@@H]2CN(C(=O)c3cnccc3OC)CCN2c2ccc(Cl)c(Cl)c2)cc1
inactive: [1] | [2] | [3] | [4]

Active and inactive are the calls of the source.
